A mixed list of measured activities; the numbers were collected in NIAID ChemDB.

Common to all: whole-cell or culture tests; agent: Hepatitis C virus; endpoint: inhibition

Inhibition is in % at the dose shown (toxicity tests: loss of growth or viability).

compound,tested at,cell line,method,strain,conditions,result
O=C(Nc1cccc(-c2cccc(F)c2)c1)C1CCN(Cc2cccc3cccnc23)CC1,5 µM,Huh7,PCR,JFH-1,-,≥40%
COc1cc(C(c2cc(OC)c3c(c2)OCO3)[C@@H]2COC(=O)[C@@H]2C)cc2c1OCO2,50 µM,Huh7.5,luciferase,Subgenomic replicon JFH-1,-,68%
CC1(C)CC[C@]2(C(=O)O)[C@H](O)C[C@]3(C)C(=CC[C@@H]4[C@@]5(C)CC[C@H](O)C(C)(C)[C@@H]5CC[C@]43C)[C@@H]2C1,5 µM,Huh7,luciferase / entry,-,pseudotyped,9%
COc1cc([C@@H]2O[C@H](c3cc(OC)c4c(c3)OCO4)[C@@H](C)[C@@H]2C)cc(OC)c1OC,12.5 µM,Huh7.5,luciferase,Subgenomic replicon JFH-1,-,92%
CC1(C)CC[C@@]2(C(=O)NCCCCCCCCCCCCNC(=O)[C@]34CCC(C)(C)CC3C3=CCC5[C@@]6(C)CC[C@H](O)C(C)(C)C6CC[C@@]5(C)[C@]3(C)C[C@H]4O)C(C1)C1=CCC3[C@@]4(C)CC[C@H](O)C(C)(C)C4CC[C@@]3(C)[C@]1(C)C[C@H]2O,1 µM,Huh7,luciferase / entry,-,-,56.2%
O=C1N/C(=N\c2nnc(-c3ccc(Cl)cc3)s2)S/C1=C\c1c(F)cccc1Cl,100 µM,Huh7/Rep-Feo1b,MTS,-,-,0%
CCn1cc(CNC(=O)[C@]23CCC(C)(C)CC2C2=CCC4[C@@]5(C)CC[C@H](O)C(C)(C)C5CC[C@@]4(C)[C@]2(C)C[C@H]3O)nn1,5 µM,Huh7,luciferase / entry,-,-,12.2%
COc1cc(CN2CCC(C(=O)Nc3cccc(-c4cccc(Cl)c4)c3)CC2)ccc1O,15 µM,Huh7,PCR,JFH-1,-,≥40%
CC1(C)CC[C@@]2(C(=O)NCc3cn(CCn4cc(CNC(=O)[C@]56CCC(C)(C)CC5C5=CCC7[C@@]8(C)CC[C@H](O)C(C)(C)C8CC[C@@]7(C)[C@]5(C)C[C@H]6O)nn4)nn3)C(C1)C1=CCC3[C@@]4(C)CC[C@H](O)C(C)(C)C4CC[C@@]3(C)[C@]1(C)C[C@H]2O,1 µM,Huh7,luciferase / entry,-,-,57.1%
CCCn1ncc(CN2CCC(C(=O)Nc3ccccc3-c3cccc(OC)c3)CC2)c1C,15 µM,Huh7,PCR,JFH-1,-,≥40%
C=C(C)[C@@H]1CC[C@]2(C(=O)O)CC[C@]3(C)[C@H](CC[C@@H]4[C@@]5(C)CC[C@H](O)C(C)(C)[C@@H]5CC[C@]43C)[C@@H]12,5 µM,Huh7,luciferase / entry,-,pseudotyped,1.9%
O=C(Nc1cccc(-c2ccco2)c1)C1CCN(Cc2nc3ccc(F)cc3[nH]2)CC1,15 µM,Huh7,PCR,JFH-1,-,<40%
CC1(C)CC[C@@]2(C(=O)NCc3cn(Cc4ccccc4Cn4cc(CNC(=O)[C@]56CCC(C)(C)CC5C5=CCC7[C@@]8(C)CC[C@H](O)C(C)(C)C8CC[C@@]7(C)[C@]5(C)C[C@H]6O)nn4)nn3)C(C1)C1=CCC3[C@@]4(C)CC[C@H](O)C(C)(C)C4CC[C@@]3(C)[C@]1(C)C[C@H]2O,5 µM,Huh7,luciferase / entry,-,-,65.7%
Cc1nn(C(C)C)c(C)c1CN1CCC(C(=O)Nc2cccc(-c3cccc(F)c3)c2)CC1,5 µM,Huh7,PCR,JFH-1,-,≥40%
CC1(C)CC[C@@]2(C(=O)NCCOCCNC(=O)[C@]34CCC(C)(C)CC3C3=CCC5[C@@]6(C)CC[C@H](O)C(C)(C)C6CC[C@@]5(C)[C@]3(C)C[C@H]4O)C(C1)C1=CCC3[C@@]4(C)CC[C@H](O)C(C)(C)C4CC[C@@]3(C)[C@]1(C)C[C@H]2O,5 µM,Huh7,luciferase / entry,-,-,83.6%

Again, the opening 2 rows:

compound	tested at	cell line	method	strain	conditions	result
O=C(Nc1cccc(-c2cccc(F)c2)c1)C1CCN(Cc2cccc3cccnc23)CC1	5 µM	Huh7	PCR	JFH-1	-	≥40%
COc1cc(C(c2cc(OC)c3c(c2)OCO3)[C@@H]2COC(=O)[C@@H]2C)cc2c1OCO2	50 µM	Huh7.5	luciferase	Subgenomic replicon JFH-1	-	68%

Conditions beyond the fields shown may differ between rows. An empty or dashed field is not shown.